Data reported in publication PMC8800143.

Target: SARS-CoV-2 spike S1 (wild-type) (SARS-CoV-2)
Experiment: BLI

Fc-tag tagged human ACE2 (from UniProt Q9BYF1) (Fc fusion)
pKd: 7.23

pKd: −log10 of the molar value.
